In patent US7378408B2, “Methods of treatment and formulations of cephalosporin” (Pfizer Inc., priority 2001, dated 2008):
Where a name gives a salt, the structure may show the parent alone.

System: Clostridium perfringens
Type: in vivo
Details: cats, 14 days after a single administration of 8 mg/kg

CO/N=C(\C(=O)N[C@@H]1C(=O)N2C(C(=O)O)=C([C@@H]3CCCO3)CS[C@H]12)c1csc(N)n1 [Compound I, (6R,7R)-7-[[(2Z)-(2-amino-4-thiazolyl)(methoxyimino)acetyl]amino]-8-oxo-3-[(2S)-tetrahydro-2-furanyl]-5-thia-1-azabicyclo[4.2.0]oct-2-ene-2-carboxylic acid, monosodium salt]
reduction in the numbers of Clostridium perfringens bacteria: substantial reduction
